Laboratory results published in article PMC11013444 (Molecules, 2024).

Assay: peptide made by a vendor
Conditions: whole synthesis, 220 nm

H-MFYPDSRCRGPSET-OH
final HPLC purity: >95%
